{"source": "patent US8153397B2", "about": "(priority 1993, dated 2012)", "biological_target": "BoNT/A LC (Clostridium botulinum, UniProt P0DPI0)", "assay": "Proteolysis experiments: truncation and fragmentation of BoNT/A LC (SDS-PAGE)", "format": "biochemical", "details": "incubation at 4° C., TPEN 5 mM, EDTA 10 mM, peptide 1 mM, ZnCl2 0.25 mM"}
{"substance": "ZnCl2", "values": [{"measurement": "effect on truncation and fragmentation of the LC", "value": "the rate of fragmentation was greatly increased"}]}
